Test results from PMC8602850.
pKd: −log10 of the molar value.

Protein sequences, listed by entry. Tags and fused reporters are not part of them. Residues count along the entry.
UniProt Q07021, 74-282, stated change not applied: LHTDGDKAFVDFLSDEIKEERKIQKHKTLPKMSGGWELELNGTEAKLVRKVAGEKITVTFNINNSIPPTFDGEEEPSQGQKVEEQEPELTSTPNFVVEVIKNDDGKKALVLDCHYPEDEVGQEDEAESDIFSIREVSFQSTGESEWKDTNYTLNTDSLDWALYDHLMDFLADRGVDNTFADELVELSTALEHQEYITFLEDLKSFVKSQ

Target: gC1qR-ΔΔ, gC1qR deletion mutant that removed the flexible, negatively charged loops (UniProt Q07021)
Test: SPR; gC1qR-WT or gC1qR-ΔΔ immobilised; two-fold dilution series of analyte injected; reference-corrected sensorgrams fit to kinetic models; apparent KD

In the case of “SARS-CoV-2 spike S1 protein, recombinant (from UniProt P0DTC2 14-685) (domain or fragment)”, the pKd was 6.43.
